These results are taken from US20040059104A1, “Nucleotide mimics and their prodrugs” (priority 2002, published 2004).

The test system of this data set is HIV-1RF. Description: Anti-HIV-1 cytoprotection assay in CEM-SS cells. It counts as cell-based. To be noted: TC50/IC50 in CEM-SS cells. As to the method:
ollowing paper: Structure-Activity and Cross-Resistance unodeficiency Virus Type 1-Specific ckheit, Jr. et al., Antimicrobial Agents and s were evaluated in CEM-SS cell cultures V-1RF at an MOI of approximately 0.01. At he soluble tetrazolium-based dye MTS viability and quantify compound toxicity of metabolically active cells to yield a soluble analysis of cell viability and compound
Efficacy Evaluation in CEM-SS Cells Anti-HIV-1 Cytoprotection Assay
Cell Preparation—CEM-SS cells were passaged in T-75 flasks prior to use in the antiviral assay. On the day preceding the assay, the cells were split 1:2 to assure they were in an exponential growth phase at the time of infection. Total cell and viability quantification was performed using a hemacytometer and trypan blue exclusion. Cell viability was greater than 95% for the cells to be utilized in the assay. The cells were resuspended at 5×10^4 cells/ml in tissue culture medium and added to the drug-containing microtiter plates in a volume of 50 μl.
Virus Preparation—The virus used for these tests was the lymphocytropic virus strain HIV-1RF. This virus was obtained from the NIH AIDS Research and Reference Reagent Program and was grown in CEM-SS cells for the production of stock virus pools. For each assay, a pre-titered aliquot of virus was removed from the freezer (−80° C.) and allowed to thaw slowly to room temperature in a biological safety cabinet. The virus was resuspended and diluted into tissue culture medium such that the amount of virus added to each well in a volume of 50 μl was the amount determined to give between 85 to 95% cell killing at 6 days post-infection.
At assay termination, the assay plates were stained with the soluble tetrazolium-based dye MTS (CellTiter Reagent Promega) to determine cell viability and quantify compound toxicity. MTS is metabolized by the mitochondrial enzymes of metabolically active cells to yield a soluble formazan product, allowing the rapid quantitative analysis of cell viability and compound cytotoxicity. […] At termination of the assay, 20 μL of MTS reagent was added per well. The microtiter plates were then incubated 4-6 hrs at 37° C. for the HIV cytoprotection assay; the incubation intervals were chosen based on empirically determined times for optimal dye reduction. Adhesive plate sealers were used in place of the lids, the sealed plate was inverted several times to mix the soluble formazan product and the plate was read spectrophotometrically at 490 nm with a Molecular Devices Vmax plate reader.
Regarding `[BH3-][P+](O)(OCC1OC(n2cc(C)c(=O)[nH]c2=O)CC1N=[N+]=[N-])OP(=O)(O)C(F)(F)P(=O)(O)O` (single isomer, unassigned) [Compound 27-isomer 1, 3′-Azido-3′-deoxythymidine 5′-α-P-borano-β,γ-(difluoromethylene)triphosphate], the “Therapeutic Index” value is 122.32.
The same measure for “3′-Azido-3′-deoxythymidine 5′-α-P-borano-β,γ-difluoromethylene-γ-O-palmityltriphosphate [Compound 41]”: 8.53; for `BP(=O)(OC[C@H]1O[C@@H](n2cc(C)c(=O)[nH]c2=O)C[C@H]1N=[N+]=[N-])OP(=O)(O)C(F)(F)P(=O)(O)Oc1ccccc1` (stereo partly drawn) [Compound 42, 3′-Azido-3′-deoxythymidine 5′-α-P-borano-β,γ-difluoromethylene-γ-O-phenyltriphosphate]: 12.64.
For `BP(=O)(OC[C@H]1O[C@@H](n2cc(C)c(=O)[nH]c2=O)C[C@H]1N=[N+]=[N-])OP(=O)(O)C(F)(F)P(=O)(O)OCOC(=O)C(C)(C)C` (stereo partly drawn) [Compound 69, 3′-Azido-3′-deoxythymidine 5′-α-P-borano-γ-O-(pivaloyloxymethyl)-β,γ-(difluoromethylene)triphosphate] the value was 40.75; for “3′-Azido-3′-deoxythymidine 5′-α-P-borano-γ-O-(S-pivaloyl-2-thioethyl)-β,γ-(difluoromethylene)triphosphate [Compound 70]”, greater than 210.89.
